Pooled drug test results. Numbers come from NIAID ChemDB, via PubChem.

Common to all: growth or infection tests; agent: Hepatitis C virus; read-out: EC50

Rows are shuffled and stem from different studies.

compound	strain or isolate	method	value
CCOc1nc(NCc2ccc(F)cc2)nc2ccc(-c3ccc(F)c(S(N)(=O)=O)c3)nc12	-	replicon	<0.1 µM
CC1(C)CC(=O)C2=C(C1)Nc1c(O)cccc1N(C(=O)c1csc(Nc3ccccc3)n1)C2c1ccc(OCc2ccccc2)cc1F	1b	luciferase / reporter gene / replicon	0.45 µM
CCC[C@H](NC(=O)[C@@H]1[C@@H](C(C)C)CCN1C(=O)[C@H](NC(=O)[C@H](NC(=O)c1cnccn1)C1CCCCC1)C(C)(C)C)C(=O)C(=O)NC1CC1	Hepatitis C virus	-	0.91 µM
CCCCCOc1ccc(N(C(=O)C(C)C)c2nc(-c3cccnc3)cs2)cc1C(F)(F)F	-	-	<1 µM
NS(=O)(=O)c1ccc(CNc2nc(NCC(F)(F)F)c3nc(-c4ccc(Cl)cc4)ccc3n2)cc1	-	replicon	<0.1 µM
CCCCCCCCCN1CCN(Cc2c(O)cc3c(c2O)-c2cc(ccc2O)[C@H]2NC(=O)[C@@H]4NC(=O)[C@H]5NC(=O)[C@@H](Cc6ccc(c(Cl)c6)Oc6cc4cc(c6O)Oc4ccc(cc4Cl)[C@@H](O)[C@H](NC2=O)C(=O)N[C@@H]3C(=O)O)NC(=O)[C@H](N)c2ccc(O)c(c2)Oc2cc(O)cc5c2)CC1	Huh 9-13	luciferase	17 µM
CCCCCCCCCc1ccc(N(C(=O)OCC[N+](C)(C)C)c2nc(-c3cccnc3)c(F)s2)cc1C(F)(F)F	-	-	<1 µM
CNc1ncnc2c1ncn2[C@@H]1O[C@H](/C=C/P(=O)(O)O)C[C@H]1O	-	replicon	>100 µM
CC1CCCN1C(=O)CCC(=O)N1c2cccc(O)c2NC2=C(C(=O)CC(C)(C)C2)C1c1ccc(OCc2ccccc2)cc1Cl	1b	luciferase / reporter gene / replicon	3.7 µM
CCCCCCCCOc1ccc(N(C(=O)c2cccnc2)c2nc(-c3nc4ccccc4s3)cs2)cc1C(F)(F)F	-	-	<1 µM
Cc1oc(-c2ccccc2)nc1C(=O)N1c2cccc(O)c2NC2=C(C(=O)CC(C)(C)C2)C1c1ccc(OCc2ccccc2)cc1F	1b	luciferase / reporter gene / replicon	0.32 µM
NS(=O)(=O)c1ccc(CNc2nc(C3CC3)c3nc(-c4ccc(F)cc4)ccc3n2)cc1	-	replicon	<0.1 µM
CCC[C@H](NC(=O)[C@@H]1[C@@H](C2CCCC2)CCN1C(=O)[C@H](NC(=O)[C@H](NC(=O)c1cnccn1)C1CCCCC1)C(C)(C)C)C(=O)C(=O)NC1CC1	Hepatitis C virus	-	2.9 µM
Nc1ccn([C@@H]2O[C@H](/C=C/P(=O)(O)O)C[C@H]2O)c(=O)n1	-	replicon	>100 µM
CCCCOc1ccc(N(C(N)=O)c2nc(-c3cccnc3)cs2)cc1C(F)(F)F	-	-	<1 µM
CN1CCN(C(=O)CNC(=O)N2c3cccc(O)c3NC3=C(C(=O)CC(C)(C)C3)C2c2ccc(OCc3ccccc3)cc2Cl)CC1	1b	luciferase / reporter gene / replicon	87 µM
CCOc1nc(NCc2ccc(S(C)(=O)=O)cc2)nc2ccc(-c3ccc(F)cc3)nc12	-	replicon	<0.1 µM
CCCCCOc1ccc(N(C(N)=O)c2nc(-c3ccc4c(c3)NC(=O)CO4)cs2)cc1F	-	-	>10 µM
CCCCOC(=O)[C@H](C)NP(=O)(/C=C/[C@@H]1C[C@@H](O)[C@H](n2nnc3c(N)ncnc32)O1)N[C@@H](C)C(=O)OCCCC	-	replicon	<10 µM
CC1(C)CC(=O)C2=C(C1)Nc1c(O)cccc1NC2/C=C/c1ccccc1[N+](=O)[O-]	1b	luciferase / reporter gene / replicon	>32 µM
CCCCCOc1ccc(N(C(=O)C(=O)OC)c2nc(-c3ccc(F)cc3)cs2)cc1C(F)(F)F	-	-	<1 µM
COC(=O)[C@@H](Cc1cnc[nH]1)NC(=O)CCC(=O)N1c2cccc(O)c2NC2=C(C(=O)CC(C)(C)C2)C1c1ccc(OCc2ccccc2)cc1Cl	1b	luciferase / reporter gene / replicon	43.73 µM
CCCCOC(=O)[C@H](C)NP(=O)(/C=C/[C@H]1O[C@@H](n2cnc3c(N)ncnc32)[C@H](F)[C@@H]1O)N[C@@H](C)C(=O)OCCCC	-	replicon	10–100 µM
CC1(C)CC(=O)C2=C(C1)Nc1c(O)cccc1N(C(=O)c1cncs1)C2c1ccc(OCc2ccccc2)cc1F	1b	luciferase / reporter gene / replicon	4.31 µM
C[C@@]1(O)[C@H](O)[C@@H](/C=C/P(=O)(O)O)O[C@H]1n1nnc2c(N)ncnc21	-	replicon	>100 µM
CCOc1nc(NCc2ccc(F)cc2)nc2ccc(-c3ccc(C(=O)NCCN(C)C)cc3)nc12	-	replicon	<0.1 µM
CC1(C)CC(=O)C2=C(C1)Nc1c(O)cccc1N(C(=O)CS(=O)(=O)c1ccccc1)C2c1ccc(OCc2ccccc2)cc1F	1b	luciferase / reporter gene / replicon	1.19 µM
Nc1ncnc2c1ncn2[C@@H]1O[C@H](/C=C/P(=O)(O)O)C[C@H]1O	-	replicon	<10 µM
CCCCCN(C)c1ccc(N(C(=O)C(=O)OC)c2nc(-c3cccnc3)cs2)cc1C(F)(F)F	-	-	<1 µM
CCC[C@H](NC(=O)[C@@H]1[C@@H](C2CCCCC2)CCN1C(=O)[C@H](NC(=O)[C@H](NC(=O)c1cnccn1)C1CCCCC1)C(C)(C)C)C(=O)C(=O)NC1CC1	Hepatitis C virus	-	0.76 µM

3 of the rows above, restated:

compound,strain or isolate,method,value
CC1(C)CC(=O)C2=C(C1)Nc1c(O)cccc1N(C(=O)c1cncs1)C2c1ccc(OCc2ccccc2)cc1F,1b,luciferase / reporter gene / replicon,4.31 µM
Nc1ccn([C@@H]2O[C@H](/C=C/P(=O)(O)O)C[C@H]2O)c(=O)n1,-,replicon,>100 µM
CC1(C)CC(=O)C2=C(C1)Nc1c(O)cccc1N(C(=O)CS(=O)(=O)c1ccccc1)C2c1ccc(OCc2ccccc2)cc1F,1b,luciferase / reporter gene / replicon,1.19 µM

a–b is a range or a potency band. ECn is the concentration giving n% inhibition of infection, replication or growth. An empty or dashed field is not shown.